Compound potency records, mixed from different reports. Data source: NIAID ChemDB in PubChem.

All rows: toxicity to cultured cells; cell line: C8166; endpoint: CC50

Conditions beyond the fields shown may differ between rows.

{"SMILES": "C=C1CC[C@@H]2[C@](C)(CO)[C@H](O)CC[C@@]2(C)[C@@H]1C/C=C1/C(=O)OC[C@H]1O", "read by": "MTT", "value": "15.2 µM"}
{"SMILES": "Cc1cn([C@H]2C[C@H](N=[N+]=[N-])[C@@H](COP(=O)(N[C@@H](C)C(=O)OCc3ccccc3)OCC(Cl)(Cl)Cl)O2)c(=O)[nH]c1=O", "value": ">100 µM"}
{"SMILES": "CC(=O)CCCCCCCCCCCCC[C@@H]1OC(=O)[C@@H](C)[C@@H]1C(=O)O", "read by": "MTT", "value": ">200 µM"}
{"SMILES": "O=c1nc(Oc2c(F)c(F)c(F)c(F)c2F)ccn1[C@H]1C[C@H](O)[C@@H](CO)O1", "value": ">1000 µM"}
{"SMILES": "COc1c(OC(C)=O)cc2c(c1O)-c1c(cc(O)c(OC)c1OC)C[C@@H](C)[C@@H](C)C2", "read by": "MTT", "value": ">200 µg/mL"}
{"SMILES": "CC1(C)C=Cc2c(cc(O)c3c(=O)cc(-c4ccc(O)cc4)oc23)O1", "read by": "MTT", "value": "246.8 µM"}
{"SMILES": "COc1ccc(CCSc2nc(Cc3cccc4ccccc34)c(C(C)C)c(=O)[nH]2)cc1", "read by": "MTT", "value": "112 µM"}
{"SMILES": "CC[C@H](C)[C@H](NC(=O)CNP(=O)(OC)C(Cc1ccccc1)NC(=O)OCc1ccccc1)C(=O)NCC(C)C", "value": ">30 µM"}
{"SMILES": "CC(C)=CCOc1cc(O)c2ccc(=O)oc2c1", "read by": "MTT", "value": "813 µM"}
{"SMILES": "CCCCCCCCC(=O)O[C@@]12[C@H](OC(=O)/C=C/c3ccccc3)[C@@H](C)[C@@]3(O)[C@@H](C=C(CO)C[C@]4(O)C(=O)C(C)=C[C@@H]34)[C@@H]1C2(C)C", "read by": "MTT", "value": "17.1 µM"}
{"SMILES": "CN(CCS(=O)(=O)O)C(=N)N", "read by": "MTT", "value": ">200 µg/mL"}
{"SMILES": "CC(=O)OC[C@@H]1OC(Oc2ccc(C(=O)/C=C/c3ccc(O)c(O)c3)c(O)c2O)[C@@H](O)[C@H](OC(C)=O)[C@H]1OC(C)=O", "value": "250 µM"}
{"SMILES": "CC(=O)OC[C@H]1O[C@@H](n2cc(C)c(Oc3c(F)c(F)c(F)c(F)c3F)nc2=O)C[C@@H]1N=[N+]=[N-]", "value": "80 µM"}
{"SMILES": "Cc1c(Cc2cccc3ccccc23)nc(SCC(=O)c2cccs2)[nH]c1=O", "read by": "MTT", "value": ">492 µM"}
{"SMILES": "CCOC1c2c(cc(O)c3c(=O)cc(-c4ccc(O)cc4)oc23)OC(C)(C)C1O", "read by": "MTT", "value": "149.5 µM"}
{"SMILES": "CO[C@H]1C[C@H](n2cc(C)c(=O)[nH]c2=O)O[C@@H]1CO", "value": "500 µM"}
{"SMILES": "CC(=O)OC[C@H]1O[C@@H](n2cc(C)c(Oc3c(F)c(F)c(F)c(F)c3F)nc2=O)C[C@@H]1OC(C)=O", "value": "80 µM"}
{"SMILES": "COc1cc(OC)c2ccc(=O)oc2c1", "read by": "MTT", "value": "417.8 µM"}
{"SMILES": "CCC(C)C(=O)OC[C@@H]1[C@H](Cc2ccc(O)c(OC)c2)CO[C@H]1c1ccc(O)c(OC)c1", "read by": "MTT", "value": "660 µM"}
{"SMILES": "C=C1CC[C@@H]2[C@](C)(CO)[C@H](O)CC[C@@]2(C)[C@@H]1CC(OC(=O)/C=C/c1ccc2c(c1)OCO2)C1CCOC1=O", "read by": "MTT", "value": "4.715 µM"}
{"SMILES": "COCCCn1c(=O)nc(-c2ccc(N3CCN(C)CC3)nc2)c2oc3ccc(-c4cnn(C)c4)cc3c21", "read by": "MTT", "value": ">15 µM"}
{"SMILES": "CC/C=C\\C/C=C\\C/C=C\\C/C=C\\C/C=C\\CCCC(=O)O[C@@H]1[C@@H](C)[C@@]2(O)[C@@H](C=C(CO)C[C@]3(O)C(=O)C(C)=C[C@@H]23)[C@@H]2C(C)(C)[C@]12OC(=O)CCC", "read by": "MTT", "value": "23.3 µM"}
{"SMILES": "CCCO[C@H]1C[C@H](n2cc(C)c(=O)[nH]c2=O)O[C@@H]1COP(=O)(OC[C@H]1O[C@@H](n2cc(C)c(=O)[nH]c2=O)C[C@@H]1OCCC)Oc1ccccc1", "value": "500 µM"}
{"SMILES": "O=c1ccn([C@@H]2O[C@H](CO)C[C@@H]2F)c(=O)[nH]1", "value": ">100 µM"}
{"SMILES": "Cc1cn([C@H]2C[C@H](N=[N+]=[N-])[C@@H](COP(=O)(N[C@@H](C)C(=O)OC3CCCCC3)Oc3ccccc3)O2)c(=O)[nH]c1=O", "value": ">100 µM"}
{"SMILES": "CC[C@H](C)[C@H](NC(=O)[C@@H]1CCCN1[P@](=O)(OC)[C@H](Cc1ccccc1)NC(=O)OCc1ccccc1)C(=O)NCC(C)C", "value": "25 µM"}
{"SMILES": "C=C1C(=O)O[C@@H](CCCCCCCCCCCCCC(C)=O)[C@H]1C(=O)O", "read by": "MTT", "value": ">200 µM"}
{"SMILES": "CO[C@H]1C[C@H](n2cc(C)c(=O)[nH]c2=O)O[C@@H]1COP(=O)(OCC(Cl)Cl)OC[C@H]1O[C@@H](n2cc(C)c(=O)[nH]c2=O)C[C@@H]1OC", "value": "1000 µM"}
{"SMILES": "COc1cc2oc3cccc(O)c3c(=O)c2c2c1OC(C)(C)C=C2", "read by": "MTT", "value": ">493.8 µM"}
{"SMILES": "C/C(=C\\CC/C(C)=C/C(=O)O)C/C=C/[C@@]1(C)CCC(C(C)(C)O)O1", "read by": "MTT", "value": ">200 µM"}
{"SMILES": "CC(C)c1c(Cc2ccccc2)nc(SCCc2ccccc2)[nH]c1=O", "read by": "MTT", "value": ">549 µM"}
{"SMILES": "COP(=O)(N[C@@H](Cc1ccccc1)C(=O)NCC(C)C)C(Cc1ccccc1)NC(=O)OCc1ccccc1", "value": "40 µM"}
{"SMILES": "Cc1cn([C@H]2C[C@H](N=[N+]=[N-])[C@@H](CO)O2)c(=O)[nH]c1=O", "read by": "MTT", "value": ">200 µM"}
{"SMILES": "CC(C)c1c(Cc2ccccc2)nc(SCC(=O)c2cccs2)[nH]c1=O", "read by": "MTT", "value": "194 µM"}
{"SMILES": "CCO[C@H]1C[C@H](n2cc(C)c(=O)[nH]c2=O)O[C@@H]1COP(=O)(OC[C@H]1O[C@@H](n2cc(C)c(=O)[nH]c2=O)C[C@@H]1OCC)OCC(F)(F)F", "value": ">1000 µM"}
{"SMILES": "C=C1CC[C@H]2[C@@](C)(CC/C(=N\\O)[C@@]2(C)CO)[C@@H]1/C=C/C1=CCOC1=O", "read by": "MTT", "value": ">579 µM"}
{"SMILES": "Cc1cn([C@H]2C[C@H](N=[N+]=[N-])[C@@H](COP(=O)(N[C@@H](C)C(=O)OC(C)(C)C)OCC(Cl)(Cl)Cl)O2)c(=O)[nH]c1=O", "value": ">100 µM"}
{"SMILES": "CO[C@H]1C[C@H](n2cc(C)c(=O)[nH]c2=O)O[C@@H]1COP(=O)(OC[C@H]1O[C@@H](n2cc(C)c(=O)[nH]c2=O)C[C@@H]1OC)Oc1ccccc1", "value": ">500 µM"}
{"SMILES": "CC[C@H](C)[C@H](NC(=O)[C@H](Cc1ccccc1)NP(=O)(OC)C(Cc1ccccc1)NC(=O)OCc1ccccc1)C(=O)NCC(C)C", "value": "1 µM"}
{"SMILES": "C=C1CC[C@H]2[C@@](C)(CC/C(=N\\OC(=O)c3ccc(Cl)cc3)[C@@]2(C)CO)[C@@H]1/C=C/C1=CCOC1=O", "read by": "MTT", "value": "34.7 µM"}
{"SMILES": "CC[C@H](C)[C@H](NC(=O)[C@@H]1CCCN1[P@@](=O)(OC)[C@H](Cc1ccccc1)NC(=O)OCc1ccccc1)C(=O)NCC(C)C", "value": "5 µM"}
{"SMILES": "COc1cc2c(c(O)c1OC)-c1c(cc(OC(C)=O)c(OC)c1O)C[C@@H](C)[C@@H](C)C2", "read by": "MTT", "value": "32.04 µg/mL"}
{"SMILES": "Cc1c(Cc2ccccc2)nc(SCC(=O)c2ccccc2)[nH]c1=O", "read by": "MTT", "value": "222 µM"}
{"SMILES": "C=CC(C)(C)c1cc2ccc(O)c(OC)c2oc1=O", "read by": "MTT", "value": "330.2 µM"}
{"SMILES": "CC(C)c1c(Cc2ccccc2)nc(SCC(=O)c2ccccc2)[nH]c1=O", "read by": "MTT", "value": ">528 µM"}
{"SMILES": "CC(=O)OCC1=C[C@H]2[C@@H]3C(C)(C)[C@]3(O)[C@H](OC(=O)CCc3ccccc3)[C@@H](C)[C@]2(O)[C@@H]2C=C(C)C(=O)[C@@]2(O)C1", "read by": "MTT", "value": "118.8 µM"}
{"SMILES": "CCc1c(Cc2cccc3ccccc23)nc(SCC(=O)c2cccs2)[nH]c1=O", "read by": "MTT", "value": "227 µM"}
{"SMILES": "CCN1C(=O)NC(=O)C(C(C)C)C1CC1CC(C)CC(C#N)C1=O", "read by": "MTT", "value": "811 µM"}
{"SMILES": "CC(C)c1c(Cc2cccc3ccccc23)nc(Sc2cccs2)[nH]c1=O", "read by": "MTT", "value": "230 µM"}
{"SMILES": "N#Cc1c(Nc2ccccc2)c(Cl)c2nc(N)nc(N)c2c1F", "read by": "MTT", "value": "8.6 µg/mL"}

The first 3 rows once more:

SMILES,read by,value
C=C1CC[C@@H]2[C@](C)(CO)[C@H](O)CC[C@@]2(C)[C@@H]1C/C=C1/C(=O)OC[C@H]1O,MTT,15.2 µM
Cc1cn([C@H]2C[C@H](N=[N+]=[N-])[C@@H](COP(=O)(N[C@@H](C)C(=O)OCc3ccccc3)OCC(Cl)(Cl)Cl)O2)c(=O)[nH]c1=O,,>100 µM
CC(=O)CCCCCCCCCCCCC[C@@H]1OC(=O)[C@@H](C)[C@@H]1C(=O)O,MTT,>200 µM

An empty or dashed field is not shown. CCn is the concentration with n% toxicity to the cells.